Patent US7691572B2, “Method and kit for detecting resistance to antiviral drugs” (priority 1998, dated 2010)
Like-named read-outs stand apart in the source and are kept apart here.

Key:
[1] = tested on: HIV-1 reverse transcriptase; test: Amp-RT assay, inhibition by 3TC-TP, reference viruses; assay type: biochemical; conditions: RTs carrying AZT (D67N, K70R, T215F, K219Q) or nevirapine (Y181C) resistance mutations
Text: The phenotypic assay used in this example was based on the analysis of the susceptibility of HIV-1 reverse transcriptase activity from plasma to inhibition by 3TC-TP.
The assay detects reverse transcriptase activity by using a nonretroviral heteropolymeric RNA template derived from the encephalomyocarditis virus (EMCV) genome, and a complementary EMCV-specific DNA oligoprimer. The RT-generated EMCV cDNA is detected by PCR amplification and internal oligoprobing of the PCR product with an EMCV-specific probe.
Amp-RT detects reverse transcriptase activity by using a heterologous RNA template derived from the encephalomyocarditis virus (EMCV), a complementary DNA oligoprimer, and PCR amplification of reverse transcriptase-generated EMCV cDNA. […] To determine the susceptibility of the reverse transcriptase to 3TC-TP, an additional Amp-RT reaction was made in the presence of 3TC-TP, with concentrations of 3TC-TP ranging from 0.1 to 10 μM. […] PCR amplification of reverse transcriptase products was made as follows after the addition of 200 μM of each dNTP. A volume of 50 μl of PCR buffer containing 2.5 units of Taq polymerase, 100 ng of the sense primer EMCF1, and 200 μM of each dNTP was added to the reverse transcriptase mixture. […]

HIV-1 RT [2] = test: Amp-RT assay, AZT-TP and other NRTI-TPs, reference viruses; assay type: biochemical; conditions: 1 μM AZT-TP
HIV-1 RT [3] = assay type: biochemical; conditions: 1 μM AZT-TP, Y181C
HIV-1 isolates = conditions: read-out: IC50 Culture, cited from earlier work

Nc1ccn([C@@H]2CS[C@H](COP(=O)(O)OP(=O)(O)OP(=O)(O)O)O2)c(=O)n1 [3TC-TP, 3TC-5′-triphosphate]
susceptibility to 3TC-TP [1]: susceptible

Cc1cn([C@H]2C[C@H](N=[N+]=[N-])[C@@H](COP(=O)(O)OP(=O)(O)OP(=O)(O)O)O2)c(=O)[nH]c1=O [AZT-TP, AZT-triphosphate]
% inhibition (SEM) (HIV-1 RT [2]; HIV-1Y181C/M184V): 94.4 (±3) % | % inhibition (SEM) (HIV-1 RT [2]; HIV-1181C/YEU, Y181C): 93.5 (±4.2) % | % inhibition (HIV-1 RT [3]; specimen 33, A62V, K70G, Q151M, M184V): 39.5% | % inhibition (HIV-1 RT [3]; specimen 34, A62V, K70G, Q151M, M184V): 45% | % inhibition (HIV-1 RT [3]; specimen 38, D67N, T69D, L214F, T215Y): 90% | % inhibition (HIV-1 RT [3]; specimen 44, A62V, I135T, T215Y, T69S-insertions SG): 96.5%

Cc1ccnc2c1NC(=O)c1cccnc1N2C1CC1 [nevirapine]
IC50 (HIV-1 isolates; isolate V818-5 (G190A, Y181C)): > 100 µM | IC50 (HIV-1 isolates; isolate W786-6 (K103N, Y181C)): 20 µM | IC50 (HIV-1 isolates; isolate X165-11 (G190A, Y181C)): 22 µM | IC50 (HIV-1 isolates; isolate X403-4 (Y181C)): 9 µM
